Columns and labels:
Assay in all cases: cell-based or functional assay
[1] = biological target: TCR Vβ5 (human)
[2] = biological target: TCR Vβ8 (human)
[3] = biological target: TCR Vβ2 (human)

Substance: H-TSST(88-194) (ligand)
- CD3^+ Blasts Binding Anti-Vβ (%) [1]: 5.4%
- CD3^+ Blasts Binding Anti-Vβ, fold difference versus unstimulated controls [1]: 2.4 fold
- CD3^+ Lymphocytes Binding Anti-Vβ (%) [1]: 3.2%
- CD3^+ Lymphocytes Binding Anti-Vβ, fold difference versus unstimulated controls [1]: 1.4 fold
- CD3^+ Blasts Binding Anti-Vβ (%) [2]: 5.2%
- CD3^+ Blasts Binding Anti-Vβ, fold difference versus unstimulated controls [2]: 1.3 fold
- CD3^+ Lymphocytes Binding Anti-Vβ (%) [2]: 4.2%
- CD3^+ Lymphocytes Binding Anti-Vβ, fold difference versus unstimulated controls [2]: 1 fold
- CD3^+ Blasts Binding Anti-Vβ (%) [3]: 29%
- CD3^+ Blasts Binding Anti-Vβ, fold difference versus unstimulated controls [3]: 3 fold
- CD3^+ Lymphocytes Binding Anti-Vβ (%) [3]: 5.8%
- CD3^+ Lymphocytes Binding Anti-Vβ, fold difference versus unstimulated controls [3]: 0.6 fold
